# Experimental data as given in patent US6498862B1 (priority 1999, dated 2002).
# Test system: B. cepacia biofilm
# Conditions: sessile B. cepacia on FOC surface; biocide recirculated at 9.8 mL/min for 5-6 hr; 2 ppm ozone; 24 and 48 ppm iodine; chlorine concentration only in FIG. 11 legend; means of three trials
substance,measurement,value
Chlorine,"biocide efficacy (rank order, from cell number/3000 μm^2 and total cell area vs elapsed time)","greatest for ozone, followed by chlorine"
